Compound potency records, mixed from different reports. Data source: NIAID ChemDB in PubChem.

Common to all: tests in culture; organism: Rhinovirus; endpoint: EC50

Conditions beyond the fields shown may differ between rows. ECn: concentration that inhibits the pathogen or its effect by n%.

smiles	strain or isolate	cells	read by	result
CSc1nsc(-c2ccc(OCCc3ccccc3)cc2)c1C#N	Serotype 70 (group A)	HELA-OHIO	cytopathic effect	>20 µM
CN(C)c1nc(C(F)(F)F)nc2c1ncn2Cc1ccc(Cl)c(NC=O)c1	Serotype 13	M-HELA	plaque count	>8 µM
CSc1nsc(-c2ccc(OCCCc3ccccc3)cc2)c1C#N	Serotype 39 (group B)	HELA-OHIO	cytopathic effect	1.8 µM
CSc1nsc(-c2ccc(OS(=O)(=O)c3ccc(C)cc3)cc2)c1C#N	Serotype 85 (group B)	HELA-OHIO	cytopathic effect	0.3 µM
CCOC(=O)c1ccc(OCCC2CCN(c3ccc(C)nn3)CC2)cc1	6258-CV44 (ICAM-1 receptor group 64)	KB	neutral red	0.813 µM
CN(C)c1nc(C(F)(F)F)nc2c1ncn2Cc1ccc([N+](=O)[O-])cc1	Serotype 5	M-HELA	plaque count	>10 µM
CSc1nsc(-c2ccc(OCCOc3ccc(C#N)cc3)cc2)c1C#N	Serotype 59 (group B)	HELA-OHIO	cytopathic effect	>2 µM
CSc1nsc(-c2ccc(OCc3ccccc3)cc2)c1C#N	Serotype 2 (group B)	HELA-OHIO	cytopathic effect	20 µM
Cc1ccc(Cn2cnc3c(N(C)C)nc(C(F)(F)F)nc32)cc1C	Serotype 1B	M-HELA	plaque count	0.17 µM
CCOC(=O)c1ccc(OCCC2CCN(c3ccc(C)nn3)CC2)cc1	Serotype 15 (group B)	HELA-OHIO	cytopathic effect	0.09 µM
CCN(c1cccc(F)c1)c1nc(C(F)(F)F)nc2c1ncn2Cc1cccc(F)c1	Serotype 4	M-HELA	plaque count	>10 µM
CSc1nsc(-c2ccc(OCCCOc3ccc(C#N)cc3)cc2)c1C#N	Serotype 72 (group A)	HELA-OHIO	cytopathic effect	>2 µM
CSc1nsc(-c2ccc(OC(C)(C)C)cc2)c1C#N	Serotype 89 (group B)	HELA-OHIO	cytopathic effect	2.5 µM
Cc1ccc(Cn2cnc3c(N(C)C)nc(C(F)(F)F)nc32)c(C)c1	Serotype 8	M-HELA	plaque count	>8 µM
CSc1nsc(-c2ccc(OCCCOc3ccccc3)cc2)c1C#N	Serotype 85 (group B)	HELA-OHIO	cytopathic effect	>20 µM
CN(C)c1nc(C(F)(F)F)nc2c1ncn2Cc1cccc(F)c1	Serotype 31	M-HELA	plaque count	>8 µM
Fc1cccc(Cn2cnc3c(Nc4cccc(F)c4)nc(C(F)(F)F)nc32)c1	Serotype 39	M-HELA	plaque count	12 µM
Cc1ccc(Cn2cnc3c(N(C)C)nc(C(F)(F)F)nc32)cc1	Serotype 5	M-HELA	plaque count	>8 µM
Cc1cc(CCCOc2c(C)cc(-c3noc(C(F)(F)F)n3)cc2C)on1	Isolate 46	OHIO HELA-I	cytopathic effect / visual reading	0.02 µg/mL
Cc1cc(Cn2cnc3c(N(C)C)nc(C(F)(F)F)nc32)ccc1Cl	Serotype 5	M-HELA	plaque count	>8 µM
CSc1nsc(-c2ccc(OCCCCOc3ccc(C#N)cc3)cc2)c1C#N	Serotype 59 (group B)	HELA-OHIO	cytopathic effect	>2 µM

The last 2 rows once more:

smiles	strain or isolate	cells	read by	result
Cc1cc(Cn2cnc3c(N(C)C)nc(C(F)(F)F)nc32)ccc1Cl	Serotype 5	M-HELA	plaque count	>8 µM
CSc1nsc(-c2ccc(OCCCCOc3ccc(C#N)cc3)cc2)c1C#N	Serotype 59 (group B)	HELA-OHIO	cytopathic effect	>2 µM